The source of these data is publication PMC11345844, “Non-Covalent Inhibitors of SARS-CoV-2 Papain-Like Protease (PLpro): In Vitro and In Vivo Antiviral Activity” (Journal of Medicinal Chemistry, 2024).

This assay deals with SARS-CoV-2 Washington strain, Gamma (P.1) and Delta (B.1.617.2).

With `Cc1ccc(NC2CNC2)cc1C(=O)N[C@H](C)c1cccc(-c2ccc(CNC3CCCC3)s2)c1` [Compound 10], the “activity against VOC Gamma (P.1) and Delta (B.1.617.2)” value is “did not lose activity”.
